The assay deals with Replicase polyprotein 1ab (Severe acute respiratory syndrome-related coronavirus, UniProt P0C6X7). As to the kind of experiment: Inhibition of SARS-CoV-1 papain-like protease.

pIC50: −log10 of the molar value.

In the case of `CNCc1ccc(C)c(C(=O)N[C@H](C)c2cccc3ccccc23)c1`, the pIC50 (usually the negative decadic logarithm of the IC50, by convention in mol/L) was 6.44.

Source of the values: ChEMBL document CHEMBL5390215, “SARS-CoV-2 papain-like protease (PLpro) inhibitory and antiviral activity of small molecule derivatives for drug leads” (Bioorg Med Chem Lett, 2023).
